## Share of PSTVd loop 6 variants by leaf site

The measurements come from Wu et al. 2024 (doi:10.1371/journal.ppat.1012142).

The pool varies loop 6 of the PSTVd intermediate strain in the pattern UNNNCGNNNG; wild type is UGACCGCGAG (upper and lower strand joined, each 5' to 3', the first 5 letters being the upper strand, closing pairs included).

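A pool of all variants was put on leaves of three Nicotiana benthamiana plants. Samples came from the inoculated region at 5 days, the leaf margin at 10 and upper systemic leaves at 12.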

Values are reads per thousand in the sample; higher means more abundant, 0 means not found.
Each site shows the three plants.
"Pool" is the share in the plasmid pool used as inoculum, on the same scale.
The inoculated region was read from the minus strand, the other sites from the plus strand.
IR is the inoculated region, LM the leaf margin, Sys the systemic leaves.
For reference, wild type rose from 20.7 per thousand in the pool to 195, 198, 203 (inoculated region), 629, 591, 734 (leaf margin) and 942, 870, 868 (systemic leaves).
Samples held 36,220 to 57,551 reads, so the smallest values rest on one or two reads.
Sequences that differ at fixed positions probably stem from PCR or sequencing errors, and defective variants can be carried along by functional ones.

| # | sequence | pool | IR | LM | Sys |
|---|---|---|---|---|---|
| 1 | GGACCGUUGG | 0.0131 | 0.0174 0.0359 0 | 0 0 0 | 0 0 0 |
| 2 | GGCCCGCGAG | 0.0131 | 0 0 0 | 0 0 0 | 0 0 0 |
| 3 | GUUCCGCGGG | 0.0131 | 0 0 0 | 0 0 0 | 0 0 0 |
| 4 | UAAACGUUCG | 0.170 | 0.678 0.575 0.387 | 0.138 0.0504 0.116 | 0.0180 0.0404 0.0410 |
| 5 | UAACCGGUCG | 0.183 | 0.0348 0.0359 0.0922 | 0.0276 0 0.0464 | 0 0 0 |
| 6 | UAAGCGGAAG | 0.0784 | 0.434 0.808 0.627 | 0.110 0.0757 0.0464 | 0 0 0 |
| 7 | UAAUCGUCAG | 0.235 | 0.139 0.144 0.111 | 0.0276 0 0 | 0 0 0 |
| 8 | UACACGAAAG | 0.118 | 0.556 0.701 0.682 | 0.0828 0.177 0.116 | 0 0 0 |
| 9 | UACCCGCAGG | 0.170 | 0.0521 0.162 0.0184 | 0.0276 0 0 | 0 0 0 |
| 10 | UACGCGGGUG | 0.235 | 0.139 0.0719 0.0738 | 0 0 0 | 0 0 0 |
| 11 | UAGACGAUUG | 0.209 | 0.104 0.0719 0.184 | 0 0 0 | 0 0 0 |
| 12 | UAGCCGAAUG | 0.301 | 0.104 0.0359 0.129 | 0.0828 0 0 | 0 0 0 |
| 13 | UAGGCGCUUG | 0.458 | 0.0695 0.126 0.0369 | 0.0552 0 0.0464 | 0 0 0.0205 |
| 14 | UAUUCGUAGG | 0.379 | 0.122 0.0539 0.0369 | 0 0 0.0232 | 0 0 0 |
| 15 | UCAACGUCUG | 0.235 | 0.104 0.0719 0.0738 | 0.0276 0 0.0232 | 0 0 0 |
| 16 | UCAGCGAAAG | 0.248 | 0.122 0.0539 0.0922 | 0 0 0 | 0 0 0 |
| 17 | UCCACGAUUG | 0.314 | 0.104 0.126 0.0922 | 0 0 0 | 0 0 0 |
| 18 | UCCACGCGGG | 0.196 | 0.0695 0.0898 0.0369 | 0.0276 0 0.0232 | 0 0 0 |
| 19 | UCCCCGGGUG | 0.288 | 0.191 0.0359 0.129 | 0 0.0757 0.0232 | 0 0 0 |
| 20 | UCCCCGUAAG | 0.144 | 0.122 0.0719 0.0553 | 0 0 0 | 0 0 0 |
| 21 | UCCGCGGGGG | 0.0784 | 0.122 0.0359 0.0369 | 0 0 0 | 0 0 0 |
| 22 | UCGACGUAAG | 0.0654 | 0.104 0.0898 0.148 | 0 0 0 | 0 0 0 |
| 23 | UCGCCGCGUG | 0.209 | 0.243 0.144 0.166 | 0 0.0252 0 | 0 0 0 |
| 24 | UCGGCGUGUG | 0.431 | 0.0521 0.0719 0.166 | 0.0276 0 0 | 0 0 0.0205 |
| 25 | UCGUCGUGAG | 0.235 | 0.156 0.0898 0.111 | 0 0 0 | 0 0 0 |
| 26 | UCUCCGUGAG | 0.209 | 0.209 0.108 0.111 | 0 0 0.0464 | 0 0 0 |
| 27 | UCUGCGAUGG | 0.275 | 0.122 0.0359 0.0738 | 0 0 0.0232 | 0 0 0 |
| 28 | UGAGCGAGGG | 0.248 | 0.104 0.0898 0.0553 | 0 0 0 | 0 0 0 |
| 29 | UGAGCGCUUG | 0.275 | 0.191 0.0719 0 | 0.0828 0 0.0232 | 0 0 0 |
| 30 | UGCACGAAAG | 0.144 | 0.104 0.0898 0.0738 | 0 0 0 | 0 0 0 |
| 31 | UGCACGCAGG | 0.196 | 0.139 0.0898 0.0553 | 0 0 0 | 0 0 0 |
| 32 | UGCACGCGUG | 0.170 | 0.156 0.0359 0.0369 | 0 0 0 | 0 0 0 |
| 33 | UGCGCUACGG | 0.0131 | 0 0 0 | 0 0 0 | 0 0 0 |
| 34 | UGCUCGAUUG | 0.301 | 0.0869 0.0719 0.111 | 0 0 0 | 0 0 0 |
| 35 | UGGCCGGGUG | 0.261 | 0.209 0.144 0.166 | 0.0552 0 0 | 0 0 0 |
| 36 | UGGCCGUAGG | 0.235 | 0.122 0.198 0.166 | 0 0 0.0232 | 0 0 0 |
| 37 | UGGCCGUAUG | 0.314 | 0.0869 0.216 0.221 | 0.414 0 0 | 0 0 0 |
| 38 | UGGGCGACGG | 0.222 | 0.0869 0.108 0.0738 | 0 0 0 | 0 0 0 |
| 39 | UGGGCGUAGG | 0.157 | 0.139 0.108 0.111 | 0 0 0 | 0 0 0 |
| 40 | UGUACGAUCG | 0.327 | 0.139 0.0719 0.148 | 0 0 0 | 0 0 0 |
| 41 | UGUCCGAUUG | 0.222 | 0.104 0.0539 0.129 | 0 0 0 | 0 0.0202 0 |
| 42 | UGUCCGCUUG | 0.261 | 0.156 0.0539 0.111 | 0.0276 0 0.0232 | 0 0 0 |
| 43 | UGUGCGCAUG | 0.131 | 0.139 0.0898 0.0553 | 0 0 0.0232 | 0 0 0 |
| 44 | UUAACGUUCG | 0.327 | 0.799 0.719 0.535 | 0.138 0.126 0.0232 | 0 0.0202 0.0615 |
| 45 | UUAACGUUGG | 0.301 | 0.139 0.0539 0.129 | 0 0 0.0232 | 0 0 0 |
| 46 | UUACCGGGAG | 0.261 | 0.782 0.719 0.627 | 0.110 0.151 0.0928 | 0.0180 0.0606 0.0410 |
| 47 | UUACCUUACG | 0.0131 | 0 0 0 | 0 0 0 | 0 0 0 |
| 48 | UUAUCGCCCG | 0.288 | 0.0869 0.144 0.0922 | 0.0276 0 0 | 0 0 0 |
| 49 | UUCGCGAUGG | 0.392 | 0.0695 0.108 0.0922 | 0 0.0252 0 | 0 0 0 |
| 50 | UUCUCGACUG | 0.392 | 0.0695 0.0898 0.0922 | 0 0 0 | 0 0 0 |
| 51 | UUCUCGCCAG | 0.275 | 0.0695 0.0719 0.111 | 0 0 0.0232 | 0 0 0 |
| 52 | UUGACGUCAG | 0.288 | 0.0521 0.0898 0.111 | 0 0 0 | 0 0 0 |
| 53 | UUGACGUGUG | 0.301 | 0.174 0.0898 0.111 | 0 0 0 | 0 0 0 |
| 54 | UUGCCGGAGA | 0.0131 | 0 0 0 | 0 0 0 | 0 0 0 |
| 55 | UUGUCGAAGG | 0.235 | 0.0521 0.0539 0.0369 | 0 0 0 | 0 0 0 |
| 56 | UUGUCGAAUG | 0.353 | 0.0869 0.108 0.0922 | 0 0 0 | 0 0 0 |
| 57 | UUGUCUAGUG | 0.0131 | 0 0 0 | 0 0 0 | 0 0 0 |
| 58 | UUUACGGACG | 0.248 | 0.747 0.539 0.479 | 0.0828 0.0504 0.0696 | 0 0.0606 0.0410 |
| 59 | UUUACGGGAG | 0.209 | 0.782 0.808 0.590 | 0.166 0.0757 0.0696 | 0 0 0 |
| 60 | UUUUCGUAGG | 0.248 | 0.0521 0.0719 0.0184 | 0 0 0.0232 | 0 0 0 |
| 61 | UUUUCGUUAG | 0.222 | 0.156 0.0539 0.0184 | 0 0 0 | 0 0 0 |

A selection of 8 entries from above:

sequence	pool	IR	LM	Sys
UUAACGUUCG	0.327	0.799 0.719 0.535	0.138 0.126 0.0232	0 0.0202 0.0615
UGUACGAUCG	0.327	0.139 0.0719 0.148	0 0 0	0 0 0
UCCACGAUUG	0.314	0.104 0.126 0.0922	0 0 0	0 0 0
UGGCCGUAUG	0.314	0.0869 0.216 0.221	0.414 0 0	0 0 0
UAGACGAUUG	0.209	0.104 0.0719 0.184	0 0 0	0 0 0
UUACCGGGAG	0.261	0.782 0.719 0.627	0.110 0.151 0.0928	0.0180 0.0606 0.0410
UGCGCUACGG	0.0131	0 0 0	0 0 0	0 0 0
UCGGCGUGUG	0.431	0.0521 0.0719 0.166	0.0276 0 0	0 0 0.0205